# In patent publication US6638509B1, “Toxin conjugates” (Kyowa Hakko Kogyo, Co., Ltd., priority 1995, dated 2003):
# System: proline endopeptidase
# Conditions: 37° C., 2.5 hours
substance,measurement,value
BzlO-PEG-Ala-Pro-Compound (12) [Compound (X-2)],cleavage efficiency,100%
